A mixed list of measured activities; the numbers were collected in NIAID ChemDB.

All rows: whole-cell or culture tests

ECn: concentration that inhibits the pathogen or its effect by n%.

compound	read by	cell line	strain or isolate	endpoint	agent	tested at	result
O=C(C[C@H]1NCCC[C@@H]1O)Cn1cnc2cc(Br)c(Cl)cc2c1=O	-	L929	Calf isolate	inhibition	Cryptosporidium parvum	4 µg/mL	93.16%
CC(=O)N[C@@H](CC(C)C)C(=O)N[C@@H](CC(C)C)C(=O)N[C@H](C=O)CCCN=C(N)N	-	-	-	inhibition	Cryptosporidium parvum	100 µg/mL	48.1%
Nc1ccn([C@@H]2O[C@H](CO)[C@@H](O)[C@@H]2O)c(=O)n1	-	-	-	inhibition	Cryptosporidium parvum	50 µg/mL	81%
N#CC(c1ccc(Cl)cc1)c1c(Cl)cc(-n2ncc(=O)[nH]c2=O)cc1Cl	-	L929	Calf isolate	inhibition	Cryptosporidium parvum	0.8 µg/mL	9.77%
C1CCC(C[C@@H]2CN=C3N2C[C@@H](C2CCCCC2)N3CCC23CC4CC(CC(C4)C2)C3)CC1	-	-	ATCC 32045	EC50	Cryptococcus neoformans	-	3.7 µg/mL
CCCCN(CCCC)CCC(O)c1cc2c(Cl)cc(Cl)cc2c2cc(C(F)(F)F)ccc12	-	L929	Calf isolate	inhibition	Cryptosporidium parvum	0.8 µg/mL	-23.12%
COC(=O)Nc1nc2ccccc2[nH]1	-	-	IU8698	EC90	Cryptococcus neoformans	-	2 µg/mL
C1CCC(C[C@H]2CN=C3N2C[C@@H](C2CCCCC2)N3CCC23CC4CC(CC(C4)C2)C3)CC1	-	-	ATCC 32045	EC50	Cryptococcus neoformans	-	3.6 µg/mL
O=S(=O)(F)Cc1ccccc1	cell count / microscopy	-	-	inhibition	Cryptosporidium parvum	3000 µM	60%
O=c1[nH]c(=O)n([C@H]2C[C@H](O)[C@@H](CO)O2)cc1I	-	-	-	inhibition	Cryptosporidium parvum	5 µg/mL	82%
CCCCc1cc2c(=O)c(C(=O)OC)c[nH]c2cc1OCc1ccccc1	-	L929	Calf isolate	inhibition	Cryptosporidium parvum	4 µg/mL	30%
Nc1nc2c(ncn2COCCO)c(=O)[nH]1	-	-	-	inhibition	Cryptosporidium parvum	10 µg/mL	6%
C1CCC(C[C@@H]2CN3C(=NC[C@@H]3C3CCCCC3)N2CCC23CC4CC(CC(C4)C2)C3)CC1	-	-	ATCC 32045	EC50	Cryptococcus neoformans	-	2.1 µg/mL
CC1(C)N=C(N)N=C(N)N1c1ccc(Cl)cc1	-	L929	Calf isolate	inhibition	Cryptosporidium parvum	20 µg/mL	23.73%
COC(=O)Nc1nc2ccc(C(=O)c3cccs3)cc2[nH]1	-	-	IU8698	EC50	Cryptococcus neoformans	-	<0.12 µg/mL
Cc1cn([C@@H]2O[C@H](CO)[C@@H](O)[C@@H]2O)c(=O)[nH]c1=O	-	-	-	inhibition	Cryptosporidium parvum	50 µg/mL	90%
C1CCC(C[C@H]2CN=C3N(CCC45CC6CC(CC(C6)C4)C5)[C@@H](CC4CCCCC4)CN32)CC1	-	-	ATCC 32045	EC50	Cryptococcus neoformans	-	5.7 µg/mL
Nc1nc(=O)n([C@H]2C[C@H](O)[C@@H](CO)O2)cc1I	-	-	-	inhibition	Cryptosporidium parvum	100 µg/mL	92%
CC(C)C[C@@H]1CN2C(=NC[C@@H]2C2CCCCC2)N1CCC12CC3CC(CC(C3)C1)C2	-	-	ATCC 32045	EC50	Cryptococcus neoformans	-	4.5 µg/mL
O=C(O)P(=O)(O)O	-	-	-	inhibition	Cryptosporidium parvum	25 µg/mL	0%
CCN1C2=NC[C@H](Cc3ccccc3)N2C[C@H]1C1CCCCC1	-	-	ATCC 32045	EC50	Cryptococcus neoformans	-	38.6 µg/mL
CCCOc1ccc2nc(NC(=O)OC)[nH]c2c1	-	-	IU4	EC90	Cryptococcus neoformans	-	3.2 µg/mL
CCN(CC)CCCC(C)Nc1ccnc2cc(Cl)ccc12	-	L929	Calf isolate	inhibition	Cryptosporidium parvum	4 µg/mL	31.22%

A second listing of 3 rows from above:

compound,read by,cell line,strain or isolate,endpoint,agent,tested at,result
Nc1ccn([C@@H]2O[C@H](CO)[C@@H](O)[C@@H]2O)c(=O)n1,-,-,-,inhibition,Cryptosporidium parvum,50 µg/mL,81%
CCCOc1ccc2nc(NC(=O)OC)[nH]c2c1,-,-,IU4,EC90,Cryptococcus neoformans,-,3.2 µg/mL
O=S(=O)(F)Cc1ccccc1,cell count / microscopy,-,-,inhibition,Cryptosporidium parvum,3000 µM,60%

Inhibition is in % at the dose shown (toxicity tests: loss of growth or viability). Rows are shuffled and stem from different studies. An empty or dashed field is not shown.